In assay [1] the target is T1, 3-dehydroquinate synthase (Escherichia coli K-12) (UniProt P07639).
T1 sequence (whole entry): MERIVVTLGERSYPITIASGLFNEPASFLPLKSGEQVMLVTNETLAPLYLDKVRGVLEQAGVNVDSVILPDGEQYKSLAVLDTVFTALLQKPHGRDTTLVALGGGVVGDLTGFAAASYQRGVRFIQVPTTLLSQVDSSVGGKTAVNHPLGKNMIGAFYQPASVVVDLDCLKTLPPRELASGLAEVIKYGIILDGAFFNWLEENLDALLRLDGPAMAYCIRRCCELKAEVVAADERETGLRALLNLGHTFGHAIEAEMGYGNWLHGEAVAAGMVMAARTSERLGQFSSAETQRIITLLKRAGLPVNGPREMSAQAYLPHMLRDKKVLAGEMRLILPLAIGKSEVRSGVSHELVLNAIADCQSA
The assay is described as follows: […] rate constant against 3-dehydroquinate synthase.

Assay [2] concerns the target T1, 3-dehydroquinate synthase (Escherichia coli K-12). As to the kind of experiment: Rate constant against 3-dehydroquinate synthase.

Each structure is given as a SMILES string.

Regarding `O=C(O)C1(O)CCC(O)C(CP(=O)(O)O)C1` (configuration not stated), the k off in assay [1] was found to be 0.00032 s⁻¹. Moreover, the k on in assay [2] was 1500 M⁻¹ s⁻¹.

(Values after ChEMBL document CHEMBL1126355, “The basis for slowly reversible inhibition of dehydroquinate synthase: a case of mistaken identity?” (Bioorg Med Chem Lett, 1992).)
